Measured values from several laboratories, pooled; numbers as filed in NIAID ChemDB.

All rows: tests in culture; organism: HIV-1; cells: MT-2; endpoint: inhibition

Lines come from different laboratories, so protocols vary. Percent inhibition refers to the dose given; in toxicity tests it is the harm to the cells.

{"structure": "CC(C)=CCOc1c2occc2cc2ccc(=O)oc12", "strain": "NL4-3 Recombinant VSV-pseudotyped", "read by": "luciferase", "tested at": "25 µM", "value": "64%"}
{"structure": "CC(C)CCCCCN1C(=O)N(CCCCCC(C)C)[C@H](Cc2ccccc2)[C@H](O)[C@@H](O)[C@H]1Cc1ccccc1", "strain": "RF", "read by": "hybridisation", "tested at": "18 µM", "value": "<90%"}
{"structure": "Nc1c(S(=O)(=O)O)cc2c3c(cc(S(=O)(=O)O)cc13)C(=O)N(NC(=O)N/N=C/c1cccc(C=O)c1)C2=O", "read by": "syncytia", "tested at": "400 µM", "value": "100%"}
{"structure": "O=C1N(c2ccccc2)c2ccccc2C1(CCc1cccnc1)CCc1cccnc1", "strain": "RF", "read by": "plaque count", "tested at": "11 µM", "value": "57%"}
{"structure": "CC(C)CN1C(=O)N(CC(C)C)[C@H](Cc2ccccc2)[C@H](O)[C@@H](O)[C@H]1Cc1ccccc1", "strain": "RF", "read by": "hybridisation", "tested at": "100 µM", "value": "<90%"}
{"structure": "CS(=O)(=O)N1CCC(CC2C(=O)N(c3ccccc3)c3ccccc32)CC1", "strain": "RF", "read by": "plaque count", "tested at": "11.3 µM", "value": "36%"}
{"structure": "CC(C)(O)[C@H](O)COc1c2occc2cc2ccc(=O)oc12", "strain": "NL4-3 Recombinant VSV-pseudotyped", "read by": "luciferase", "tested at": "50 µM", "value": "60%"}
{"structure": "Nc1nc2c(ncn2[C@H]2CC[C@@H](CO)O2)c(=O)[nH]1", "strain": "IIIB", "read by": "syncytia", "tested at": "0.01 µM", "value": "28%"}
{"structure": "O=C1N(Cc2ccc(CO)cc2)[C@H](Cc2ccccc2)[C@H](O)[C@@H](O)[C@@H](Cc2ccccc2)N1Cc1ccc(CO)cc1", "strain": "RF", "read by": "virus yield", "tested at": "0.15 µM", "value": "90%"}
{"structure": "CC(C)CCCCN1C(=O)N(CCCCC(C)C)[C@H](Cc2ccccc2)[C@H](O)[C@@H](O)[C@H]1Cc1ccccc1", "strain": "RF", "read by": "hybridisation", "tested at": "95 µM", "value": "<90%"}
{"structure": "CC(C)Nc1cccnc1N1CCN(C(=O)c2cc3ccccc3[nH]2)CC1", "strain": "LAV", "tested at": "1 µM", "value": "100%"}
{"structure": "COCCN1C(=O)N(CCOC)[C@H](Cc2ccccc2)[C@H](O)[C@@H](O)[C@H]1Cc1ccccc1", "strain": "RF", "read by": "hybridisation", "tested at": "114 µM", "value": "<90%"}
{"structure": "Nc1cccc(CN2C(=O)N(Cc3cccc(N)c3)[C@H](Cc3ccccc3)[C@H](O)[C@@H](O)[C@H]2Cc2ccccc2)c1", "strain": "E (PR M46L V82V/I I84V/I)", "changes": "PR-M46L V82V+I I84V+I", "read by": "virus yield", "tested at": "0.912 µM", "value": "90%"}
{"structure": "COCCOCCN1C(=O)N(CCOCCOC)[C@H](Cc2ccccc2)[C@H](O)[C@@H](O)[C@H]1Cc1ccccc1", "strain": "RF", "read by": "hybridisation", "tested at": "94 µM", "value": "<90%"}
{"structure": "CN1CC=C(CC2(CC3=CCN(C)CC3)C(=O)N3c4ccccc4CCc4cccc2c43)CC1", "strain": "RF", "read by": "plaque count", "tested at": "11 µM", "value": "74%"}

For reference, 2 entries again:

{"structure": "COCCN1C(=O)N(CCOC)[C@H](Cc2ccccc2)[C@H](O)[C@@H](O)[C@H]1Cc1ccccc1", "strain": "RF", "read by": "hybridisation", "tested at": "114 µM", "value": "<90%"}
{"structure": "O=C1N(c2ccccc2)c2ccccc2C1(CCc1cccnc1)CCc1cccnc1", "strain": "RF", "read by": "plaque count", "tested at": "11 µM", "value": "57%"}